Measured values from publication PMC10032271.

The chains behind the UniProt entries cited, without tags or fusion partners. Where a name states a change or a piece, a line headed by the entry shows the natural chain unless it says otherwise.
UniProt Q2FX09: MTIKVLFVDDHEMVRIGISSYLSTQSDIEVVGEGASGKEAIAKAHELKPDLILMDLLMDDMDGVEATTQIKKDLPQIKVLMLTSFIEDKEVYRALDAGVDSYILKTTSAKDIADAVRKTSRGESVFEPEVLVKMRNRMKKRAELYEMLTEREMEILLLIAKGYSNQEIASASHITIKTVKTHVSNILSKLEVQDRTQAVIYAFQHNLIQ

Legend:
[1] = molecular target: His6-VraR (Staphylococcus aureus USA300 LAC) (UniProt Q2FX09); assay: DNase I footprinting; conditions: 6 uM VraR, 50 mM acetyl phosphate, 5 mM Mg2+, 10 mM Tris-HCl pH 7.5, 50 mM KCl, 1 mM DTT, 5 mM MgCl2, 0.05% NP-40, 2.5% glycerol, room temperature, 15 min, recombinant protein, residues 1-209, protein details: N-terminal His6 (pET28a), label: 5' FAM on reverse primer strand, probe letters rebuilt from the primers and the genome
[2] = molecular target: His6-VraR (Staphylococcus aureus USA300 LAC) (UniProt Q2FX09); assay: EMSA; conditions: 50 mM acetyl phosphate, 5 mM Mg2+, 10 mM Tris-HCl pH 7.5, 50 mM KCl, 1 mM DTT, 5 mM MgCl2, 0.05% NP-40, 2.5% glycerol, room temperature, 15 min, recombinant protein, residues 1-209, protein details: N-terminal His6 (pET28a), probe letters rebuilt from the primers and the genome

| Sequence | binding result [1] | binding result [2] |
| --- | --- | --- |
| AACCTATATTACCTCCTTTGCTACTCTATGGTTATATTATAAATAACATTTTTATGTGTGACATCAACCTTAAGTATCAACTTTTTATCAGACATAGAACGTATGATTTACTAAGACTATTTATGTATAAAAGTTCTAAATAAATATATATTTATAGAGTCGCCTGGCAGTCATTTGGGAAATATAACATATATGATTAGAGAGGCATCTATCGCAAAAGAATGATAATGATAGAGGTATTGAGCATATAGATGAGTTTAAGTTCATCTTGAAAATAAAGGGTTATTTAGTCATAGATGTAGATGTATAGGAAATATTTGTATGTATTGTTCGATATGTATGAAATTTTC (double strand) [FAM-vraX promoter] | binds |  |
| AACCTATATTACCTCCTTTGCTACTCTATGGTTATATTATAAATAACATTTTTATGTGTGACATCAACCTTAAGTATCAACTTTTTATCAGACATAGAACGTATGATTTACTAAGACTATTTATGTATAAAAGTTCTAAATAAATATATATTTATAGAGTCGCCTGGCAGTCATTTGGGAAATATAACATATATGATTAGAGAGGCATCTATCGCAAAAGAATGATAATGATAGAGGTATTGAGCATATAGATGAGTTTAAGTTCATCTTGAAAATAAAGGGTTATTTAGTCATAGATGTAGATGTATAGGAAATATTTGTATGTATTGTTCGATATGTATGAAATTTTC (double strand) [vraX-p] |  | binds |
| TATTACGCAAGTGTGCTGTATTCTAAAGTGCACTTGTGTTTTCTATTTTTTAATAAAACCTCAGCACATAATGAACAACTTTCTATTTTCTATATCACTTAAAACCATTTCCGAAATTAAACCTCAGCACATTCAAAGCCCCACTTTATTCTTAAAAATATTTTTTAACTCATATGTATTAAACCGCTTTCATTATAAAAAATATCTCTATATTTTATCTGTTTTTATTAATCGAAATAGCGTGATTTTGCGGTTTTAAGCCTTTTACTTCCTGAATAAATCTTTCAGCAAAATATTTATTTTATAAGTTGTAAAACTTACCTTTAAATTTAATTATAAATATAGATTTTAGTATTGCAATACATAATTCGTTATATTATGATGACTTTACAAATACATACAGGGGGTATTAAT (double strand) [FAM-spa promoter] | binds |  |
| TATTACGCAAGTGTGCTGTATTCTAAAGTGCACTTGTGTTTTCTATTTTTTAATAAAACCTCAGCACATAATGAACAACTTTCTATTTTCTATATCACTTAAAACCATTTCCGAAATTAAACCTCAGCACATTCAAAGCCCCACTTTATTCTTAAAAATATTTTTTAACTCATATGTATTAAACCGCTTTCATTATAAAAAATATCTCTATATTTTATCTGTTTTTATTAATCGAAATAGCGTGATTTTGCGGTTTTAAGCCTTTTACTTCCTGAATAAATCTTTCAGCAAAATATTTATTTTATAAGTTGTAAAACTTACCTTTAAATTTAATTATAAATATAGATTTTAGTATTGCAATACATAATTCGTTATATTATGATGACTTTACAAATACATACAGGGGGTATTAAT (double strand) [spa-p] |  | binds |
